Results: ChEMBL document CHEMBL1145117, “Structures and cytotoxic properties of trichoverroids and their macrolide analogues produced by saltwater culture of Myrothecium verrucaria” (J Med Chem, 2003)

What was measured:
Homo sapiens = species: Homo sapiens; assay: Activity relative to compound 3 (set to 1.0) was evaluated against H116 colon tumor cell lines; assay type: functional
MC-38 [1] = assay: Selectivity was evaluated against murine tumor ZC38 colon adenocarcinoma cell lines- ZCFU-GM normal bone marrow cell lines at a concentration of 31 ug/mL; conditions: Mus musculus
MC-38 [2] = assay: Selectivity was evaluated against Murine tumor ZC38 colon adenocarcinoma cell lines- ZL1210 lymphocytic leukemia cell lines at a concentration of 31 ug/mL; conditions: Mus musculus
colon = assay: Selectivity was evaluated against human ZH116 colon cell lines-CEM lymphocytic leukemia cell lines at a concentration of 31 ug/mL
NCI-H125 = assay: Selectivity was evaluated against human ZH125 lung non small cell carcinoma cell lines-CEM lymphocytic leukemia cell lines at a concentration of 31 ug/mL
L1210 = assay: Selectivity was evaluated murine tumor against ZL1210 lymphocytic leukemia cell lines- ZCFU-GM normal bone marrow cell lines at a concentration of 31 ug/mL; conditions: Mus musculus

## CC(=O)OC(C)[C@@H](O)/C=C/C=C\C(=O)O[C@@H]1CC2O[C@@H]3C=C(C)CC[C@]3(COC(=O)/C=C(\C)CCO)[C@]1(C)[C@]21CO1 (stereo partly specified) [13`-ACETYLTRICHOVERRIN B]
Homo sapiens
  Relative activity: 9
MC-38 [1]
  Selectivity: -100 zone unit
MC-38 [2]
  Selectivity: -400 zone unit
colon
  Selectivity: -150 zone unit
NCI-H125
  Selectivity: 400 zone unit
L1210
  Selectivity: 300 zone unit
